A mixed list of measured activities; the numbers were collected in NIAID ChemDB.

Common to all: toxicity to cultured cells; cells: PBMC; read-out: CC50

CCn: concentration that lowers growth or viability of the cells by n%. Rows are shuffled and stem from different studies. Two numbers with a dash give a range or band.

CCOC(=O)[C@H](C)NP(=O)(OCC(F)(F)C(F)(F)Cn1cc(C)c(=O)[nH]c1=O)Oc1ccccc1 ; value: >100 µM
COc1ccc(/C=N/NC(=O)Cn2nc(-c3ccccc3)c3c2-c2ccccc2S(=O)(=O)N3C)c(OC)c1OC ; value: >100 µM
CC(C)(C)OC(=O)N1[C@H](CO)CC(F)(F)[C@H]1n1cnc2ncnc(Cl)c21 ; value: 59.5 µM
COc1ccc(OC(=O)NCC2CCc3ccccc3N2)cc1 ; value: 50 µM
Cc1ccc(Cn2c(=O)ccn(CC#N)c2=O)cc1C ; value: 434 µM
Cn1c2ccccc2c(=O)c2c(O)cccc21 ; value: 12.4 µg/mL
CN(C)CCNc1nc(-c2cc3ccccc3s2)c2ccccc2n1 ; value: 100 µM
CCOCc1cn([C@H]2C=C[C@@H](CO)O2)c(=O)[nH]c1=O ; value: 54 µM
Cc1ccc(Cn2c(=O)ccn(CC#N)c2=O)cc1 ; value: >490 µM
O=c1[nH]cnc2c1ncn2[C@@H]1C[C@H](CO)C(F)(F)C1 ; value: >100 µM
Nc1nc2c(ncn2[C@H]2S[C@@H](CO)C=C2F)c(=O)[nH]1 ; value: >13 µM
CN1CCN(CCSCc2ccc(-c3cccc(-c4ccc(CSCCN5CCN(C)CC5)cc4)n3)cc2)CC1 ; value: 10 µM
Nc1nc(=O)n([C@H]2O[C@@H](CO)[C@H](O)C2(F)F)cc1Br ; value: >100 µM
CONc1ncnc2c1ncn2[C@@H]1O[C@H](CO)C[C@@H]1F ; value: >80 µM
CC(C)OC(=O)[C@H](C)NP(=O)(OCC(F)(F)C(F)(F)C(F)(F)Cn1c(=O)cc[nH]c1=O)Oc1ccccc1 ; value: >100 µM
Cc1nc(CCCCCCC(=O)c2ccccc2)n2nc(NCCCCCCN)ccc12 ; value: >10 µM
Cc1cn([C@H]2C[C@H](N=[N+]=[N-])[C@@H](COC(=O)OC[C@H]3O[C@H]3CO)O2)c(=O)[nH]c1=O ; value: >20 µM
O=c1[nH]c(=O)n([C@H]2C[C@H](O)[C@@H](CO)O2)cc1C12B3B4B5B6B(B3B1B42)B1B5C61 ; value: >100 µM
Nc1ncnc2c1ncn2CC(F)(F)C(F)(F)CO ; value: >100 µM
C[n+]1ccc(-c2c3nc(c(-c4ccccc4)c4ccc([nH]4)c(-c4ccccc4)c4nc(c(-c5cc[n+](C)cc5)c5ccc2[nH]5)C=C4)C=C3)cc1 ; value: >100 µM
Cn1c2ccccc2c(=O)c2c(O)cccc21 ; value: 12.4 µg/mL
CN(C)c1ccc(Nc2c3ccc(NC(=O)CCN4CCCC4)cc3nc3cc(NC(=O)CCN4CCCC4)ccc23)cc1 ; value: 79.6 µM
Cc1cccc(Cn2c(=O)ccn(CC#N)c2=O)c1 ; value: 302 µM
Cn1cc(C(=O)O)c(=O)c2cc(F)c(N3CC=C(c4ccccc4)CC3)c(C(F)(F)F)c21 ; value: >1 µM
Nc1nc2c(ncn2[C@@H]2C[C@H](CO)C(F)(F)C2)c(=O)[nH]1 ; value: >100 µM
Cc1nc(CCCCCCC(=O)c2ccccc2)n2nc(NCCCCCCCCNCc3cn([C@H]4C=C[C@@H](CO)O4)c(=O)[nH]c3=O)ccc12 ; value: >10 µM
Cc1cc(C)cc(Cn2c(=O)ccn(CC#N)c2=O)c1 ; value: >464 µM
CN(C)CCCNC(=O)CCNC(=O)c1cc(NC(=O)c2nc(NC(=O)CCNC(=O)c3cc(NC(=O)c4nc(NC(=O)CCCNC(=O)c5cc(NC(=O)c6nc(NC(=O)CCNC(=O)c7cc(NC(=O)c8nccn8C)cn7C)cn6C)cn5C)cn4C)cn3C)cn2C)cn1C ; value: >1 µM
CC(C)(C)OC(=O)N1[C@H](CO)CC(F)(F)[C@@H]1n1ccc(=O)[nH]c1=O ; value: 81.4 µM
Cc1nc(CCCCCCC(=O)c2ccccc2)n2nc(Cl)ccc12 ; value: >10 µM
COc1ccc2[nH]c(C(=O)N3CCN(c4ncccc4NC(C)C)CC3)cc2c1 ; value: >10 µM
CC(C)(C)C(=O)SCCOP(=O)(OCCSC(=O)C(C)(C)C)OC[C@H]1CC[C@@H](n2cnc3c(N)ncnc32)O1 ; value: >100 µM
Nc1nc2c(ncn2[C@@H]2C=C[C@H](CO)C2)c(=O)[nH]1 ; value: >100 µM
CC(C)Oc1ccccc1CNC(=O)c1ccc2cnccc2n1 ; value: 20.46 µM
OC[C@@H]1C[C@H](F)[C@H](n2cnc3c(NO)ncnc32)O1 ; value: >80 µM
CCc1c(C)[nH]c(=O)c(N(C)C)c1Cc1cc(C)cc(C)c1 ; value: >1 µM
O=C(O)c1ccc(-c2c3nc(c(-c4ccc(C(=O)O)cc4)c4ccc([nH]4)c(-c4ccc(C(=O)O)cc4)c4nc(c(-c5ccc(C(=O)O)cc5)c5ccc2[nH]5)C=C4)C=C3)cc1 ; value: >100 µM
CCNC(=O)NC(=O)C(C)OC(=O)c1c2c(nc3ccccc13)/C(=C\c1cccc(OC)c1OC)CC2 ; value: >100 µM
C=C1CN(S(=O)(=O)c2ccc(C)cc2)CCCN(Cc2ccccc2)CCCN(S(=O)(=O)c2ccc(C)cc2)C1 ; value: 73 µM
COc1ccccc1N1CCN(c2c(F)cc3c(=O)c(C(=O)O)cn(C)c3c2CN(C)C)CC1 ; value: >20 µM
Cc1cn([C@H]2C[C@H](N=[N+]=[N-])[C@@H](COP(=O)(O)OCCS[C@@H]3O[C@H](CO)[C@@H](O)[C@H](O)[C@H]3O)O2)c(=O)[nH]c1=O ; value: >10 µM
O=C(NCCc1ccc2c(n1)NCCC2)N1CCCCC1 ; value: 50 µM
Nc1nc2c(ncn2CC(F)(F)C(F)(F)CO)c(=O)[nH]1 ; value: >100 µM
C#Cc1cnc(OC)nc1OC ; value: >100 µM
Cc1cn([C@H]2C=C(F)[C@@H](CO)C2)c(=O)[nH]c1=O ; value: >100 µM
CCCc1cc(=O)oc2c3c(c4c(c12)OC(C)(C)CC4)O[C@@H](C)[C@H](C)[C@@H]3O ; value: 10–20 µM
CC(C)OC(=O)[C@H](C)NP(=O)(OCC(F)(F)C(F)(F)C(F)(F)Cn1cnc2c(=O)[nH]c(N)nc21)Oc1ccccc1 ; value: >100 µM
Oc1ccc(-c2c3nc(c(-c4ccc(O)cc4)c4ccc([nH]4)c(-c4ccc(O)cc4)c4nc(c(-c5ccc(O)cc5)c5ccc2[nH]5)C=C4)C=C3)cc1 ; value: >100 µM
O=C(CN1c2c(-c3ccccc3)n[nH]c2-c2ccccc2S1(=O)=O)N/N=C/c1ccc([N+](=O)[O-])cc1 ; value: ≥100 µM
O=C(NCCc1ccccc1)C1=Cc2ccncc2CC1 ; value: 278 µM
COc1ccc(/C=N/NC(=O)CN2c3c(-c4ccccc4)n[nH]c3-c3ccccc3S2(=O)=O)c(OC)c1 ; value: 74.4 µM
CN1c2c(-c3ccccc3)nn(CC(=O)N/N=C/c3ccc([N+](=O)[O-])cc3)c2-c2ccccc2S1(=O)=O ; value: >100 µM
CC[C@H](C)[C@H](NC(=O)[C@@H](C[C@H](O)[C@H](CC1CCCCC1)NC(=O)CC(C)(C)C)C(C)C)C(=O)NCc1ccccn1 ; value: >10 µM
Cc1cn([C@@H]2CC[C@H](COC(=O)CCCCCCCCC(=O)OC[C@H]3O[C@@H](n4cc(C)c(=O)[nH]c4=O)C[C@@H]3N=[N+]=[N-])O2)c(=O)[nH]c1=O ; value: >1 µM
O=c1[nH]c(=O)n([C@H]2O[C@@H](CO)[C@H](O)C2(F)F)cc1Br ; value: >100 µM
Cc1nc(CCCCCCC(=O)c2ccccc2)n2nc(NCCCCCCCCCCNCc3cn([C@H]4C=C[C@@H](CO)O4)c(=O)[nH]c3=O)ccc12 ; value: 18 µM
COc1ccc(/C=N/NC(=O)Cn2nc(-c3ccccc3)c3c2-c2ccccc2S(=O)(=O)N3C)cc1 ; value: >100 µM
Cc1cn([C@@H]2CC[C@H](COC(=O)CCCCCCCCCCCCC(=O)OC[C@H]3O[C@@H](n4cc(C)c(=O)[nH]c4=O)C[C@@H]3N=[N+]=[N-])O2)c(=O)[nH]c1=O ; value: >1 µM
Cc1nc(CCCCCCC(=O)c2ccccc2)n2nc(NCCCCCCNCc3cn([C@H]4C=C[C@@H](CO)O4)c(=O)[nH]c3=O)ccc12 ; value: 25 µM
CN1c2c(-c3ccccc3)nn(CC(=O)N/N=C/c3ccc(Cl)cc3)c2-c2ccccc2S1(=O)=O ; value: >100 µM
N#CCn1ccc(=O)n(Cc2cc(Cl)cc(Cl)c2)c1=O ; value: 214 µM
CC(=O)OC[C@H]1O[C@@H](SCCOP(=O)(O)OC[C@H]2O[C@@H](n3cc(C)c(=O)[nH]c3=O)C[C@@H]2N=[N+]=[N-])[C@H](OC(C)=O)[C@@H](OC(C)=O)[C@@H]1OC(C)=O ; value: >10 µM
Nc1nc(=O)n(C2O[C@@H](CO)[C@H](O)C2(F)F)cc1Br ; value: >100 µM
CN1CCN(CCSc2nc(-c3cc4ccccc4s3)c3ccccc3n2)CC1 ; value: 10 µM
Nc1ccn([C@H]2C=C(F)[C@@H](CO)C2)c(=O)n1 ; value: >100 µM
CN(C)CCSc1nccc(-c2cccn2C)n1 ; value: 100 µM
O=C(CNCCc1ccc2c(n1)NCCC2)Nc1cccc(F)c1 ; value: 50 µM
Nc1ccc2c(O)c(Br)c(S(=O)(=O)O)cc2c1Br ; value: 500 µM
O=c1[nH]c(=O)n([C@@H]2O[C@@H](CO)[C@H](O)C2(F)F)cc1I ; value: >100 µM
C[n+]1cccc(-c2c3nc(c(-c4ccccc4)c4ccc([nH]4)c(-c4ccccc4)c4nc(c(-c5ccc[n+](C)c5)c5ccc2[nH]5)C=C4)C=C3)c1 ; value: >100 µM
OC[C@@H]1C[C@H](F)[C@H](n2cnc3c(NOCc4ccccc4)ncnc32)O1 ; value: >80 µM
NC(=O)c1cccc(N=O)c1 ; value: 50 µM
Nc1nc2c(ncn2[C@H]2O[C@@H](CO)[C@H](O)C2(F)F)c(=O)[nH]1 ; value: >100 µM
Nc1ccn([C@H]2S[C@@H](CO)C=C2F)c(=O)n1 ; value: >100 µM
O=c1[nH]cnc2c1ncn2[C@@H]1C=C(F)[C@H](CO)C1 ; value: >100 µM
C#Cc1cnc(OC(=O)c2ccccc2)nc1OC(=O)c1ccccc1 ; value: >100 µM
Nc1nc(=O)n([C@H]2O[C@@H](CO)[C@H](O)C2(F)F)cc1Cl ; value: >100 µM
O=C(CN1c2c(-c3ccccc3)n[nH]c2-c2ccccc2S1(=O)=O)N/N=C/c1cccc([N+](=O)[O-])c1 ; value: 22 µM
O=C(O)c1cn(-c2ccc(Cn3cncn3)cc2)c2c(OC(F)F)c(N3CC=C(c4ccccc4)CC3)c(F)cc2c1=O ; value: 1.5 µM
CN1c2c(-c3ccccc3)nn(CC(=O)N/N=C/c3ccc(Cl)cc3Cl)c2-c2ccccc2S1(=O)=O ; value: >100 µM
Cc1cn([C@H]2O[C@@H](CO)[C@H](O)C2(F)F)c(=O)[nH]c1=O ; value: >100 µM
CC(C)(CS(=O)(=O)[O-])[NH2+]C(=O)C(CC(F)(OC(F)(F)C(F)(OC(F)(F)C(F)(OC(F)(F)C(F)(F)C(F)(F)F)C(F)(F)F)C(F)(F)F)C(F)(F)F)C(F)(OC(F)(F)C(F)(OC(F)(F)C(F)(OC(F)(F)C(F)(F)C(F)(F)F)C(F)(F)F)C(F)(F)F)C(F)(F)F ; value: 54.6 µg/mL
CN1c2c(-c3ccccc3)nn(CC(=O)N/N=C/c3ccccc3[N+](=O)[O-])c2-c2ccccc2S1(=O)=O ; value: >100 µM
O=C(NCCc1ccc2c(n1)NCCC2)Nc1ccccc1OC(F)F ; value: 50 µM
CN(C)CCSc1nccc(-c2cccs2)n1 ; value: 100 µM
O=C(CN1c2c(-c3ccccc3)n[nH]c2-c2ccccc2S1(=O)=O)N/N=C/c1cccc(Cl)c1 ; value: 11.2 µM
Cc1cn([C@@H]2C=C(F)[C@H](CO)C2)c(=O)[nH]c1=O ; value: >100 µM
CN1c2c(-c3ccccc3)nn(CC(=O)N/N=C/c3cccc(Cl)c3)c2-c2ccccc2S1(=O)=O ; value: 51.6 µM
Cc1cn([C@H]2C[C@H](N=[N+]=[N-])[C@@H](COP(=O)(OCCSC(=O)C(C)(C)C)OCCSC(=O)C(C)(C)C)O2)c(=O)[nH]c1=O ; value: >10 µM